Measured values published in US10206902B2, “Mono- or di-substituted indoles as dengue viral replication inhibitors” (priority 2014, dated 2019).

Columns and labels:
Assay type in all cases: cell-based, Dengue virus
DENV-2 16681 strain = test: DENV-2 antiviral assay (eGFP-labelled virus in Vero cells); conditions: SI=CC50/EC50, DENV-2 antiviral assay
Procedure: The antiviral activity of all the compounds of the invention was tested against DENV-2 16681 strain which was labeled with enhanced green fluorescent protein (eGPF). The culture medium consists of minimal essential medium supplemented with 2% of heat-inactivated fetal calf serum, 0.04% gentamycin (50 mg/mL) and 2 mM of L-glutamine. Vero cells, obtained from ECACC, were suspended in culture medium and 25 μL was added to 384-well plates (2500 cells/well), which already contain the antiviral compounds. Typically, these plates contain a 4-fold serial dilution of 9 dilution steps of the test compound at 200 times the final concentration in 100% DMSO (200 nL). In addition, each compound concentration is tested in quadruplicate (final concentration range: 25 μM-0.00038 μM). Finally, each plate contains wells which are assigned as virus controls (containing cells and virus in the absence of compound), cell controls (containing cells in the absence of virus and compound) and medium controls (containing medium in the absence of cells, virus and compounds). To the wells assigned as medium control, 25 μL of culture medium was added instead of Vero cells. Once the cells were added to the plates, the plates were incubated for 30 minutes at room temperature to allow the cells to distribute evenly within the wells. Next, the plates were incubated in a fully humidified incubator (37° C., 5% CO2) until the next day. Then, DENV-2 strain 16681, labeled with eGFP, was added at a multiplicity of infection (MOI) of 0.5. Therefore, 15 μL of virus suspension was added to all the wells containing test compound and to the wells assigned as virus control. In parallel, 15 μL of culture medium was added to the medium and cell controls. Next, the plates were incubated for 3 days in a fully humidified incubator (37° C., 5% CO2). At the day of the read out, the eGFP fluorescence was measured using an automated fluorescence microscope at 488 nm (blue laser). Using an in-house LIMS system, inhibition dose response curves for each compound were calculated and the half maximal effective concentration (EC50) was determined. Therefore, the percent inhibition (I) for every test concentration is calculated using the following formula: I=100*(ST−SCC)/(SVC−SCC); ST, SCC and SVC are the amount of eGFP signal in the test compound, cell control and virus control wells, respectively. The EC50 represents the concentration of a compound at which the virus replication is inhibited with 50%, as measured by a 50% reduction of the eGFP fluorescent intensity compared to the virus control. The EC50 is calculated using linear interpolation (Table 1).

DENV-2 NGC-Tongalike = test: Tetravalent RT-qPCR assay Protocol B, serotype 2; conditions: serotype 2 NGC-Tongalike
Procedure: (§1) Vero cells (4×10^4) were seeded in 96-well plates. […] Following a 2 hour incubation period, the cell monolayer was washed 3 times with assay medium to remove residual, non-adsorbed virus and cultures were further incubated for either 4 days (DENV-2 NGC-Tongalike) or 7 days (DENV-1 Djibouti strain D1/H/IMTSSA/98/606, DENV-3 strain H87 prototype, DENV-4 strain H241′) in the presence of the inhibitor. Supernatant was harvested and viral RNA load was determined by real-time quantitative RT-PCR. The 50% effective concentration (EC50), which is defined as the compound concentration that is required to inhibit viral RNA replication by 50%, was determined using logarithmic interpolation (Tables 7 and 8). RNA was isolated from 100 μL supernatant with the NucleoSpin 96 Virus kit (Filter Service, Duren, Germany) as described by the manufacturer. The sequences of the TaqMan primers (DENV-For, DENV-Rev; Table 5) and TaqMan probes (DENV-Probe Table 5) were selected from non-structural gene 3 (NS3) or NS5, of the respective flaviviruses using Primer Express software (version 2.0; Applied Biosystems, Lennik, Belgium). The TaqMan probe was fluorescently labelled with 6-carboxyfluorescein (FAM) at the 5′ end as the reporter dye, and with minor groove binder (MGB) at the 3′ end as the quencher (Table 5). One-step, quantitative RT-PCR was performed in a total volume of 25 μL, containing 13.9375 μL H2O, 6.25 μL master mix (Eurogentec, Seraing, Belgium), 0.375 μL forward primer, 0.375 μL reverse primer, 1 μL probe, 0.0625 μL reverse transcriptase (Eurogentec) and 3 μL sample. RT-PCR was performed using the ABI 7500 Fast Real-Time PCR System (Applied Biosystems, Branchburg, N.J., USA) using the following conditions: 30 min at 48° C. and 10 min at 95° C., followed by 40 cycles of 15 s at 95° C. and 1 min at 60° C. The data was analyzed using the ABI PRISM 7500 SDS software (version 1.3.1; Applied Biosystems). For absolute quantification, standard curves were generated using 10-fold dilutions of template preparations of known concentrations.

[1] = system: DENV-3 strain H87 prototype; test: Tetravalent RT-qPCR assay Protocol B, serotype 3; conditions: serotype 3 H87
Procedure: as §1

Compound | SI (DENV-2 16681 strain) | SI (DENV-2 NGC-Tongalike) | SI [1]
COc1cc(NC(C(=O)c2c[nH]c3cc(Cl)ccc23)c2ccc(F)cc2OC)cc(OCCO)c1 (single isomer, unassigned) [Compound 4A, 1-(6-chloro-1H-indol-3-yl)-2-(4-fluoro-2-methoxyphenyl)-2-((3-(2-hydroxyethoxy)-5-methoxyphenyl)amino)ethanone] | 3698 | 109414 | 443
COc1cc(NC(C(=O)c2c[nH]c3c(C)c(Cl)ccc23)c2ccc(F)cc2OC)cc(OCCO)c1 (single isomer, unassigned) [Compound 3A, 1-(6-chloro-7-methyl-1H-indol-3-yl)-2-(4-fluoro-2-methoxyphenyl)-2-((3-(2-hydroxyethoxy)-5-methoxyphenyl)amino)ethanone] | 5120 | 46900 | 232
COc1cc(NC(C(=O)c2c[nH]c3cc(F)c(F)cc23)c2ccc(F)cc2OC)cc(OCCO)c1 (single isomer, unassigned) [Compound 10B, 1-(5,6-difluoro-1H-indol-3-yl)-2-(4-fluoro-2-methoxy-phenyl)-2-((3-(2-hydroxyethoxy)-5-methoxyphenyl)amino)ethanone] | 2565 | 6750 | >337
COc1cc(NC(C(=O)c2c[nH]c3c(Cl)c(OC)ccc23)c2ccc(F)cc2OC)cc(OCCO)c1 (single isomer, unassigned) [Compound 8A, 1-(7-chloro-6-methoxy-1H-indol-3-yl)-2-(4-fluoro-2-methoxyphenyl)-2-((3-(2-hydroxyethoxy)-5-methoxyphenyl)amino)ethanone] | 10020 | – | 324
COc1cc(NC(C(=O)c2c[nH]c3c(C)c(F)ccc23)c2ccc(F)cc2OC)cc(OCCO)c1 (single isomer, unassigned) [Compound 2B, 2-(4-fluoro-2-methoxyphenyl)-1-(6-fluoro-7-methyl-1H-indol-3-yl)-2-((3-(2-hydroxyethoxy)-5-methoxyphenyl)amino)ethanone] | 2581 | 18500 | 188
COc1cc(NC(C(=O)c2c[nH]c3c(C)cc(F)cc23)c2ccc(F)cc2OC)cc(OCCO)c1 (single isomer, unassigned) [Compound 9B, 2-(4-fluoro-2-methoxyphenyl)-1-(5-fluoro-7-methyl-1H-indol-3-yl)-2-((3-(2-hydroxyethoxy)-5-methoxyphenyl)amino)ethanone] | 1575 | 17500 | 109
COc1cc(NC(C(=O)c2c[nH]c3c(F)c(F)ccc23)c2ccc(F)cc2OC)cc(OCCO)c1 (single isomer, unassigned) [Compound 5B, 1-(6,7-difluoro-1H-indol-3-yl)-2-(4-fluoro-2-methoxyphenyl)-2-((3-(2-hydroxyethoxy)-5-methoxyphenyl)amino)ethanone] | 2673 | 30000 | 212
COc1cc(NC(C(=O)c2c[nH]c3c(F)cc(C)cc23)c2ccc(F)cc2OC)cc(OCCO)c1 (single isomer, unassigned) [Compound 12B, 2-(4-fluoro-2-methoxyphenyl)-1-(7-fluoro-5-methyl-1H-indol-3-yl)-2-((3-(2-hydroxyethoxy)-5-methoxyphenyl)amino)ethanone] | 1063 | 8070 | 133
COc1cc(NC(C(=O)c2c[nH]c3cc(F)ccc23)c2ccc(F)cc2OC)cc(OCCO)c1 (single isomer, unassigned) [Compound 1A, 1-(6-fluoro-1H-indol-3-yl)-2-(4-fluoro-2-methoxyphenyl)-2-((3-(2-hydroxyethoxy)-5-methoxyphenyl)amino)ethanone] | 2100 | 11200 | 207
COc1cc(NC(C(=O)c2c[nH]c3cc(OC)c(C)cc23)c2ccc(F)cc2OC)cc(OCCO)c1 (single isomer, unassigned) [Compound 6A, 2-(4-fluoro-2-methoxyphenyl)-2-((3-(2-hydroxyethoxy)-5-methoxyphenyl)amino)-1-(6-methoxy-5-methyl-1H-indol-3-yl)ethanone] | 2968 | 39200 | 484
COc1cc(NC(C(=O)c2c[nH]c3cc(OC)c(F)cc23)c2ccc(F)cc2OC)cc(OCCO)c1 (single isomer, unassigned) [Compound 7A, 2-(4-fluoro-2-methoxyphenyl)-1-(5-fluoro-6-methoxy-1H-indol-3-yl)-2-((3-(2-hydroxyethoxy)-5-methoxyphenyl)amino)ethanone] | 1864 | 9980 | 339
COc1cc(NC(C(=O)c2c[nH]c3c(C)c(OC)ccc23)c2ccc(F)cc2OC)cc(OCCO)c1 (single isomer, unassigned) [Compound 11A, 2-(4-fluoro-2-methoxyphenyl)-2-((3-(2-hydroxyethoxy)-5-methoxyphenyl)amino)-1-(6-methoxy-7-methyl-1H-indol-3-yl)ethanone] | 10981 | 17600 | 261
